Measured values from several laboratories, pooled; numbers as filed in NIAID ChemDB.

Shared fields: tests in culture; species: Encephalomyocarditis virus

ECn is the concentration giving n% inhibition of infection, replication or growth. An empty or dashed field is not shown. Rows are shuffled and stem from different studies.

| structure | read by | cell line | measure | value |
|---|---|---|---|---|
| N#Cc1c(SCCO)nsc1-c1ccccc1 | plaque count | L929 | EC50 | >5 µg/mL |
| O=c1c2cccnc2[se]n1-c1ccccc1 | - | - | MIC | 4 µg/mL |
| Cc1c(C(N)=O)ncn1C1OC(CO)C(O)C1O | cytopathic effect | - | EC50 | >200 µg/mL |
| N#Cc1c(N2CCOCC2)nsc1-c1ccccc1 | plaque count | L929 | EC50 | >1 µg/mL |
| Cc1ccc(S(=O)(=O)Nc2ccccc2[Se][Se]c2ccccc2NS(=O)(=O)c2ccc(C)cc2)cc1 | - | - | MIC | 60 µg/mL |
| NC(=O)c1csc([C@@H]2O[C@H](CO)[C@@H](O)[C@H]2O)n1 | cytopathic effect | HeLa | EC50 | 43 µg/mL |
| O=c1c2cccnc2[se]n1N(c1ccccc1)c1ccccn1 | - | - | MIC | 500 µg/mL |
| CCCCNS(=O)(=O)c1ccc(NC(=O)CCC[Se][Se]CCCC(=O)Nc2ccc(S(=O)(=O)NCCCC)cc2)cc1 | - | - | MIC | >1000 µg/mL |
| CN(C)c1nsc(-c2ccccc2)c1C#N | plaque count | L929 | EC50 | >15 µg/mL |
| O=c1[nH][se]c2ncccc12 | - | - | MIC | 6 µg/mL |
| CSc1nsc(-c2ccccc2)c1C(N)=O | plaque count | L929 | EC50 | >250 µg/mL |
| O=C(CCC[Se][Se]CCCC(=O)Nc1ccc(S(=O)(=O)N2CCCCC2)cc1)Nc1ccc(S(=O)(=O)N2CCCCC2)cc1 | - | - | MIC | >1000 µg/mL |
| CCCn1[se]c2ncccc2c1=O | - | - | MIC | 4 µg/mL |
| O=c1c2ccccc2[se]n1CC(O)C(O)C(O)C(O)CO | - | - | MIC | 165.7 µM |
| Nc1ccccc1[Se][Se]c1ccccc1N | - | - | MIC | 10 µg/mL |
| N#Cc1c(SCCCCBr)nsc1-c1ccccc1 | plaque count | L929 | EC50 | 5 µg/mL |

2 of the rows above, restated:

structure | read by | cell line | measure | value
Cc1c(C(N)=O)ncn1C1OC(CO)C(O)C1O | cytopathic effect | - | EC50 | >200 µg/mL
NC(=O)c1csc([C@@H]2O[C@H](CO)[C@@H](O)[C@H]2O)n1 | cytopathic effect | HeLa | EC50 | 43 µg/mL